SMILES strings stand for the structures.

These results are taken from article PMC9115767 (European journal of medicinal chemistry, 2021).

For this series the following is noted: human, microsomes, 1 h.

In the case of `O=C(O)Cc1ccccc1Nc1c(Cl)cccc1Cl` [Diclofenac], the “Remaining (NCF = 60min)” value is listed as 96.7% and the “Remaining (T = 60min)” value is recorded as 0.0%.
